34 compounds from PubChem BioAssay AID488862 (Broad Institute, 2010) can be followed below.

The structures appear in SMILES notation. The entries are a selection whose mix differs from that of the whole data set. The source made the active and inactive calls. Rule as the data show it: active = inhibition above about 52%; inactive = the rest.

A short description of this assay: suppresses PrP 5' UTR mRNA reporter expression (AID 488862). Also: 0 = median of the neutral control wells. The conditions noted are these: cell-based PrP 5' UTR mRNA reporter, plate reader; active compounds read high; concentration not given here.
`O=C(O)c1ccccc1[As](=O)(O)O`: the inhibition was inactive: 2.25%.
Under `CC(=O)Nc1ccc([As](=O)(O)O)cc1` stands inactive: 5.98%.
Under `CCCC1OP(N)(=O)OCC1CC` (centres undefined) stands inactive: 1.99%.
As for `O=C(O)CNc1ccc([As](=O)(O)O)cc1`, the inhibition was inactive: -23.7%.
Under `O=[N+]([O-])c1cccc(NC2=NCC(CBr)S2)c1` (centres undefined) stands inactive: -12.3%.
As for `COC(=O)C1(C)COP(=O)(Nc2ccccc2)OC1` (centres undefined), the inhibition was inactive: -18.8%.
On to `O=[N+]([O-])c1ncn(CCn2ncnc2[N+](=O)[O-])n1`, for which the inhibition was inactive: -21.6%.
Under `CC(C)(C)C(=O)NC(Sc1ccncn1)C(Cl)(Cl)Cl` (centres undefined) stands inactive: -9.15%.
Under `CP(=O)(OC12CC3CC(CC(C3)C1)C2)OC12CC3CC(CC(C3)C1)C2` stands inactive: -33.6%.
Under `CCOC(=O)c1ccc(NP(C)(=O)Oc2ccc(Cl)cc2)cc1` (centres undefined) stands inactive: -44.8%; under `O=C(Nc1cc([As](=O)(O)O)ccc1O)c1ccccc1`, inactive: -15.2%; under `O=P1(N(CCCl)CCCl)OCCCS1` (centres undefined), inactive: -20.8%.
On to `CC1CCN(C(=O)Oc2c(Cl)cc(Cl)c3cccnc23)CC1`, for which the inhibition was inactive: -19.7%.
Under `CC(C)=N/N=C(\N)N[N+](=O)[O-]` stands inactive: -28.1%.
The figure for `CN(C)C(=O)c1c([N+](=O)[O-])cc([N+](=O)[O-])cc1[N+](=O)[O-]` is inactive: 2.63%; for `CN(C)C(=O)OCCc1n(C)cc[n+]1C` it is inactive: -20.3%.
Take `CCN(/C(=N/P(=O)(N1CCOCC1)N1CCOCC1)N1CCOCC1)c1ccc(OC)cc1`: the inhibition is inactive: -9.95%.
Under `CP(=O)(Nc1ccc(Cl)cc1)Oc1ccc(F)cc1` (centres undefined) stands inactive: -9.7%; under `Nc1ccc([As](=O)(O)c2ccc(N)cc2)cc1`, inactive: 3.17%; under `CC(C)(C)c1ccc(OP(C)(=O)O)cc1`, inactive: -11.9%.
Under `COc1ccccc1OP(C)(=O)Nc1ccccc1Br` (centres undefined) stands inactive: 4.7%.
For `C[N+]1=C2C=CC=CC=C2SC12C([N+](=O)[O-])=CC([N+](=O)[O-])=C[C-]2[N+](=O)[O-]` (centres undefined), the inhibition was inactive: -27.2%.
Under `CP(=O)(Oc1ccccc1)N1CCOC1=O` (centres undefined) stands inactive: -11.4%.
Under `Cc1ccc(NP(=O)(Oc2ccccc2)Oc2ccccc2)nc1` stands inactive: -29.7%; under `O=[N+]([O-])c1cc([N+](=O)[O-])c(CCNc2ccccc2)c([N+](=O)[O-])c1`, inactive: -7.98%; under `CCc1nc2c(n1)c1c(non1O)c1c2no[n+]1[O-]`, inactive: -17%.
For `CCc1ccc(OP(C)(=O)Nc2cccnc2)cc1` (centres undefined), the inhibition was inactive: 0.875%.
Consider `COc1ccccc1OP(C)(=O)Nc1c(C)n(C)n(-c2ccccc2)c1=O` (centres undefined), for which the inhibition was inactive: -19.1%.
The figure for `CC(=O)N1C2C3N(C(C)=O)C1C1N(C(C)=O)C(C(N1C(C)=O)N3C(C)=O)N2C(C)=O` is inactive: -2.85%; for `O=[N+]([O-])c1cccc2n[nH]nc12` it is inactive: -8.39%.
The figure for `O=C(OCCCN1CCCC1)C(O)(c1ccccc1)C1CCCCC1` (centres undefined) is inactive: -23.9%; for `CCN(CC)CC(O)COC(=O)C(O)(c1ccccc1)C1CCCCC1` (centres undefined) it is inactive: -12.9%; for `COc1ccc(OP(C)(=O)Nc2ccc(Br)cc2)cc1` (centres undefined) it is inactive: -15.6%.
Under `COc1ccc(C2=NCC(CBr)S2)cc1` (centres undefined) stands inactive: -11.9%.

A word on the inhibition: it is the relative decrease from the control value, in per cent.
